PubChem BioAssay AID1259414 – Drosophila RNAi Screening Center | 2018

- Aim: 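Genome-wide screen for host control of endosymbiont load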 (primary screen)
- Cell system: Drosophila JW18 cells infected with Wolbachia
- Reagent: long dsRNA against Drosophila genes, 0.25 µg dsRNA per well of a 384-well plate
- Timing: 5 days
- Challenge: cells persistently infected with Wolbachia before knock-down; no added drug
- Read-out: 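Imaged fluorescence in situ signal for Wolbachia 23S rRNA per DAPI-counted host cell, given as a robust z-score within each plate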
- Direction: Wolbachia per cell robust z: higher = more Wolbachia per host cell than the plate typical
- Hit rule: 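Hit when robust z is 1.5 or more, or -1.5 or less, in at least two of three replicates; excludes dsRNAs with several or no targets, genes not expressed in JW18 and well A1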
In all, the deposit lists about 24,000 reagents; this is an unselected part of those that have a named target and a result. Over the whole deposit, about 1,210 (5%) got an active call. 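Inactive calls also include excluded dsRNAs with several or no targets, genes unexpressed in JW18, and well A1, regardless of score.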 Entries without a mark were called inactive. Names joined by + are all predicted targets of the reagent.

no.	target gene	dsRNA	Wolbachia per cell robust z, rep 1	Wolbachia per cell robust z, rep 2	Wolbachia per cell robust z, rep 3
1	CG7741	DRSC07035	-1.11	0.162	-0.14
2	CG11679	DRSC19415	-3.21	0.356	0.396
3	Sema1a (Semaphorin 1a)	DRSC03433	0.0972	0.694	0.267
4	fdl (fused lobes)	DRSC07279	1.62	0.087	0.374
5	fdl (fused lobes)	DRSC26852	-0.209	0.239	-0.0557
6	Cpr67Fa1 + Cpr67Fa2	DRSC28050	0.516	-0.89	-1.94
7	Srp54 (Splicing regulatory protein 54)	DRSC03442	0.666	0.204	2.21
8	CG5062	DRSC18385	0.402	0.861	-4.01
9	Pvf1 (PDGF- and VEGF-related factor 1)	DRSC20024	0.88	-1.52	-0.284
10	Prtl99C (Protamine-like 99C)	DRSC15049	0.468	1.09	1
11	CG2972	DRSC18250	2.2	-0.546	-1.61
12	CG2972	DRSC30013	0.338	-0.154	-1.36
13	CG6040	DRSC15954	-0.0841	-0.777	0.729
14	CG6040	DRSC26100	-0.574	0.303	-0.286
15	CG3448	DRSC10368	-2.97	-0.336	0.601
16	CG3448	DRSC27580	0.793	-0.308	-1.17
17	CG30380	DRSC05069	0.587	0.385	0.606
18	CG11123	DRSC06040	-0.54	-2.84	-0.666
19	CG11123	DRSC28420	0.882	0.605	0.0917
20	spir (spire)	DRSC03619	0.586	0.879	-4.82
21	spir (spire)	DRSC24744	0.466	-1.63	1.18
22	spir (spire)	DRSC40746	1.29	0.241	0.514
23	CG9861	DRSC04576	-0.333	-0.0567	-0.154
24	CG9861	DRSC28876	-2.8	-0.911	-1.01
25	CG13724	DRSC10053	-1.82	0.225	-0.692
26	CG13724	DRSC25395	-0.644	0.528	0.954
27	CG5214	DRSC15739	-0.0183	-0.205	0.479
28	CG5214	DRSC22842	-4.09	-0.61	-1.4
29	CG5214	DRSC25298	-0.61	0.562	-0.0168
30	CG11596	DRSC18540	0.859	-0.391	1.08
31	CG11596	DRSC28643	0.527	0.805	0.385
32	amon (amontillado)	DRSC13784	-0.339	0.755	0.103
33	amon (amontillado)	DRSC16900	-0.398	-2.42	1.06
34	Vps53 (Vacuolar protein sorting 53)	DRSC00595	0.962	-8.58	0.535
35	CG6805	DRSC07011	-1.71	1.07	0.179
36	CG6805	DRSC29352	0.61	-0.0525	-0.57
37	CG6805	DRSC41591	0.797	0.477	0.0689
38	spn-B (spindle B)	DRSC17063	0.713	1.41	-9.33
39	spn-B (spindle B)	DRSC26699	-0.335	-0.00839	-0.862
40	gom (gomdanji)	DRSC04690	-3.5	0.862	0.112
41	CG14200	DRSC19555	2.31 (active)	0.377	1.73
42	CG14200	DRSC22979	-0.364	0.0559	-0.375
43	CG14200	DRSC25784	0.00499	-0.0839	-0.696
44	CG8414	DRSC07168	0.647	-2.48	-0.634
45	Usp20-33 (Ubiquitin specific protease 20/33)	DRSC07196	-2.12 (active)	-7.11	-0.101
46	CNMa (CNMamide)	DRSC08405	0.439	-0.634	-1.03
47	CG4733	DRSC15634	-0.468	0.854	-0.952
48	Tim17b2 (Translocase inner membrane 17)	DRSC28544	-1.63	-2.19	-1.85
49	vkg (viking)	DRSC03632	-0.318	0.572	0.434
50	su(w[a]) (suppressor of white-apricot)	DRSC18840	-0.563	-0.926	0.412
51	su(w[a]) (suppressor of white-apricot)	DRSC29287	0.996	0.685	0.642
52	CG9919	DRSC20219	0.0571	-1.74	-0.00658
53	Nin (Ninein)	DRSC02007	-0.612	-1.6	-0.0449
54	CG14658	DRSC12244	1.18	0.145	0.48
55	PGRP-SA (Peptidoglycan recognition protein SA)	DRSC19420	0.589	0.204	-0.238
56	CG2202	DRSC19841	1.41	1.84	-0.973
57	CG2202	DRSC23452	-0.19	-0.399	1.42
58	CG14227	DRSC19584	0.393	-1.12	0.207
59	CG14227	DRSC29213	0.0898	-0.677	-0.139
60	Plekhm1 (Pleckstrin homology and RUN domain containing M1)	DRSC04527	0.0719	-0.998	-0.134
61	CG8323	DRSC07149	0.657	1.03	-0.0711
62	CG34008	DRSC37919	1.16	0.218	-0.109
63	CG5011	DRSC00674	-5.47	-7.54	0.193
64	IntS4 (Integrator 4)	DRSC17810	4.14	0.803	0.342
65	CG3277	DRSC00588	-2.79	-0.065	0.286
66	Ir52a (Ionotropic receptor 52a)	DRSC06262	-2.03	0.612	0.14
67	CG3842	DRSC18326	1.07	-0.428	-2.2
68	CG3842	DRSC26584	0.0179	-0.103	0.202
69	LKRSDH (Lysine ketoglutarate reductase/saccharopine dehydrogenase)	DRSC03015	0.229	0.404	0.247
70	LKRSDH (Lysine ketoglutarate reductase/saccharopine dehydrogenase)	DRSC24572	0.471	-0.639	0.268
71	Pdhb (Pyruvate dehydrogenase E1 beta subunit)	DRSC14420	1.29	-0.437	-1.76
72	Pdhb (Pyruvate dehydrogenase E1 beta subunit)	DRSC29695	0.638	1.61	-5.23
73	Pdhb (Pyruvate dehydrogenase E1 beta subunit)	DRSC39078	-2.5	-1.28	-0.878
74	CG32189	DRSC09511	0.553	1.32	-0.0272
75	CG32189	DRSC26756	0.56	2.33	0.32
76	CG42391	DRSC40598	-0.544	0.0826	-2.29
77	Nep1 (Neprilysin 1)	DRSC18388	-0.458	-0.507	0.19
78	Nep1 (Neprilysin 1)	DRSC26208	1.15	-0.591	-0.0806
79	CG11566 (retired record) + stg1	DRSC20482	-0.243	0.307	0.459
80	Gbp3 (Growth-blocking peptide 3)	DRSC15206	0.246	0.295	-0.142
81	CG4849	DRSC15662	1.13 (active)	2.09	2.19
82	CG4849	DRSC27175	0.601	0.619	0.328
83	CG16984	DRSC08500	-3.46	-4.59	-0.842
84	CG16984	DRSC28605	-0.304	0.884	1.11
85	Col4a1 (Collagen type IV alpha 1)	DRSC03291	-0.263	-0.0812	-0.445
86	CG10064	DRSC09689	0.268	-1.57	0.322
87	Golgin104 (Golgin 104)	DRSC10459	0.162	-0.866	-1.04
88	Golgin104 (Golgin 104)	DRSC26351	-0.547	-0.377	0.75

4 entries from above, arranged by “Wolbachia per cell robust z, rep 3”, lowest first:
target gene	dsRNA	Wolbachia per cell robust z, rep 1	Wolbachia per cell robust z, rep 2	Wolbachia per cell robust z, rep 3
CG9861	DRSC28876	-2.8	-0.911	-1.01
CG13724	DRSC10053	-1.82	0.225	-0.692
CG9861	DRSC04576	-0.333	-0.0567	-0.154
CG13724	DRSC25395	-0.644	0.528	0.954
